Pooled drug test results. Numbers come from NIAID ChemDB, via PubChem.

Common to all: growth or infection tests; organism: Herpes simplex virus 2; measure: EC50

Conditions beyond the fields shown may differ between rows. An empty or dashed field is not shown. ECn: concentration that inhibits the pathogen or its effect by n%.

CNc1ncnc2c1ncn2[C@@H]1S[C@@H](CO)C[C@@H]1N=[N+]=[N-] ; value: >100 µg/mL
CCOP(=O)(OCC)C1=NOC(Cn2cc(F)c(=O)[nH]c2=O)C1 ; cell line: VERO ; method: plaque count ; value: >400 µM
Cc1cn(CC[C@H](O)CCO)c(=O)[nH]c1=O ; cell line: E6SM ; strain or isolate: G ; method: cytopathic effect ; value: >400 µg/mL
Nc1nc2c(ncn2COCCO)c(=O)[nH]1 ; cell line: HFF ; strain or isolate: 14875 MS2 (acyclovir-susceptible) ; method: cytopathic effect ; value: 1 µg/mL
CC(C)(C)[Si](C)(C)OC[C@H]1O[C@@H](n2ccc(=O)[nH]c2=O)[C@H](O[Si](C)(C)C(C)(C)C)[C@@]12O[C@H]2C(=O)NO ; cell line: VERO ; method: plaque count ; value: 3 µM
CCCCCOc1nc(N)nc2c1ncn2/C=C1/C[C@@H]1CO ; cell line: HFF ; method: cytopathic effect ; value: >330 µM
CC(C)(C)[Si](C)(C)OC[C@H]1O[C@@H](n2ccc(=O)[nH]c2=O)[C@H](O[Si](C)(C)C(C)(C)C)[C@@]12O[C@H]2C(N)=O ; cell line: VERO ; method: plaque count ; value: >8 µM
Cn1cc(C(=O)NCc2ccc(Cl)cc2)c(=O)c2cc(CN3CCOCC3)ccc21 ; cell line: VERO ; strain or isolate: MS-M1 ; method: plaque count ; value: >50 µM
CO[C@H](CO)[C@@H](O)CCn1ccc(N)nc1=O ; cell line: E6SM ; strain or isolate: LYONS ; method: cytopathic effect ; value: >400 µg/mL
COC(=O)[C@@H]1O[C@]12[C@@H](CO[Si](C)(C)C(C)(C)C)O[C@@H](n1ccc(=O)[nH]c1=O)[C@@H]2O[Si](C)(C)C(C)(C)C ; cell line: VERO ; method: plaque count ; value: 26 µM
CC1COc2c(N3CCN(C)CC3)c(F)cc3c(=O)c(C(=O)O)cn1c23 ; cell line: HeLa ; strain or isolate: UW ; method: cytopathic effect ; value: 250 µg/mL
Nc1nc2c(ncn2COCCO)c(=O)[nH]1 ; cell line: VERO ; strain or isolate: 196 ; method: XTT ; value: 1.2 µM
[N-]=[N+]=N[C@H]1C[C@@H](CO)S[C@@H]1n1cnc2c(=O)[nH]cnc21 ; value: >100 µg/mL
Nc1ncnc2c1ncn2CC[C@H](O)CCO ; cell line: E6SM ; strain or isolate: G ; method: cytopathic effect ; value: >400 µg/mL
Nc1nc2c(ncn2[C@@H]2O[C@H](COP(=O)(O)CC(=O)O)[C@@H](O)[C@H]2O)c(=O)[nH]1 ; cell line: VERO ; strain or isolate: 3345 ; method: plaque count ; value: >2000 µM
CCCc1cn([C@H]2C[C@H](O)[C@@H](CO)O2)c(=O)[nH]c1=O ; cell line: Primary rabbit kidney cells ; strain or isolate: Strain 196 ; method: cytopathic effect ; value: 7 µg/mL
Nc1nc2c(ncn2/C=C2/CC2(CO)CO)c(=O)[nH]1 ; cell line: HFF ; method: cytopathic effect ; value: >380 µM
Nc1ncnc2c1ccn2[C@@H]1C[C@H](O)[C@@H](O)[C@H]1O ; cell line: E6SM ; strain or isolate: TYPE G ; method: cytopathic effect ; value: >400 µg/mL
Cn1cc(C(=O)NCc2ccc(Cl)cc2)c(=O)c2cc(/C=C\CO)cc(F)c21 ; cell line: VERO ; strain or isolate: MS ; method: plaque count ; value: 2 µM
O=c1[nH]c(=O)n(C2CC(CO)[C@@H](O)C2)cc1/C=C/Br ; cell line: PRK ; strain or isolate: 196 ; method: cytopathic effect ; value: 70 µg/mL
Nc1nc2c(ncn2COCCO)c(=O)[nH]1 ; cell line: PRK ; strain or isolate: G ; method: cytopathic effect ; value: 0.07 µg/mL
N=C(N)CCNC(=O)c1c[nH]c(NC(=O)c2c[nH]c(NC(=O)CCCCCCCC(=O)Nc3c[nH]c(C(=O)Nc4c[nH]c(C(=O)NCCC(=N)N)c4)c3)c2)c1 ; cell line: PRK ; method: cytopathic effect ; value: 40 µg/mL
O=c1[nH]c(=O)n([C@@H]2C[C@H](CO)[C@@H](O)C2)cc1I ; cell line: PRK ; strain or isolate: G ; method: cytopathic effect ; value: 10 µg/mL
[N-]=[N+]=N[C@H]1C[C@H](CO)S[C@H]1n1cnc2c(=O)[nH]cnc21 ; value: >100 µg/mL
Nc1ccn(C[C@H]2COP(=O)(O)CO2)c(=O)n1 ; cell line: MRC-5 ; method: plaque count ; value: 11.2 µM
C=CCOc1nc(N)nc2c1ncn2/C=C1/C[C@@H]1CO ; cell line: HFF ; method: cytopathic effect ; value: >386 µM
Nc1ncnc2c1ncn2[C@@H]1O[C@H](COP(=O)(O)CC(=O)O)[C@@H](O)[C@@H]1O ; cell line: VERO ; strain or isolate: 3345 ; method: plaque count ; value: >2000 µM
CCOC(=O)c1ccc(OCCC2CCN(c3ccc(C)nn3)CC2)cc1 ; cell line: KB ; strain or isolate: HGP ; method: virus yield ; value: 0.0023 µM
Nc1nc2c(ncn2/C=C2\CC2(CO)CO)c(=O)[nH]1 ; cell line: HFF ; method: cytopathic effect ; value: >380 µM
COC(=O)CC1(O)C(O[Si](C)(C)C(C)(C)C)[C@H](n2ccc(=O)[nH]c2=O)O[C@@H]1CO[Si](C)(C)C(C)(C)C ; cell line: VERO ; method: plaque count ; value: >3.2 µM
[N-]=[N+]=N[C@@H]1C[C@@H](CO)S[C@H]1n1ccc(=O)[nH]c1=O ; value: >100 µg/mL
CCCCCCCCCCCCCCCCCCOCCOP(=O)(O)CO[C@H](CO)Cn1ccc(N)nc1=O ; cell line: MRC-5 ; method: plaque count ; value: 0.03 µM
O=C(O)P(=O)(O)O ; cell line: MEF ; strain or isolate: E-196 ; method: plaque count ; value: 20.5 µg/mL
Nc1nc2c(ncn2CCCC(CO)CO)c(=O)[nH]1 ; cell line: VERO ; strain or isolate: 72 ; method: plaque count ; value: 3.6 µM
CC(=O)OC(C)[C@H]1CCC2C3CC4[C@H](C)C[C@@]5(CC[C@H](OC(C)=O)C[C@]45Cl)C3CC[C@@]21C ; cell line: BHK-21 ; strain or isolate: G ; method: cytopathic effect ; value: 68.9 µM
Nc1nc(NCC2CC2)c2ncn(/C=C3/C[C@@H]3CO)c2n1 ; cell line: HFF ; method: cytopathic effect ; value: >349 µM
CC(=O)/C=C/[C@]12CC[C@H](OC(C)=O)CC1=CCC1C2CC[C@@]2(C)C1CC[C@@H]2C(C)OC(C)=O ; cell line: BHK-21 ; strain or isolate: G ; method: cytopathic effect ; value: 3.2 µM
N=C(N)CCNC(=O)c1c[nH]c(NC(=O)c2c[nH]c(NC(=O)/C=C/C(=O)Nc3c[nH]c(C(=O)Nc4c[nH]c(C(=O)NCCC(=N)N)c4)c3)c2)c1 ; cell line: PRK ; method: cytopathic effect ; value: 10 µg/mL
Nc1ncnc2c1ncn2[C@H]1C[C@H](O)[C@@H](COP(=O)(O)CC(=O)O)O1 ; cell line: VERO ; strain or isolate: 3345 ; method: plaque count ; value: >2000 µM
Nc1ncnc2c1ncn2[C@@H]1C=C(CO)[C@@H](O)[C@H]1O ; cell line: E6SM ; strain or isolate: G ; method: cytopathic effect ; value: ≥40 µg/mL
Cc1cn([C@@H]2O[C@H](CO[Si](C)(C)C(C)(C)C)C3(O[C@H]3C(N)=O)[C@H]2O[Si](C)(C)C(C)(C)C)c(=O)[nH]c1=O ; cell line: VERO ; method: plaque count ; value: >2.7 µM
N=C(N)CCNC(=O)c1c[nH]c(NC(=O)c2c[nH]c(NC(=O)c3c[nH]c(NC(=O)CCC(=O)Nc4c[nH]c(C(=O)Nc5c[nH]c(C(=O)Nc6c[nH]c(C(=O)NCCC(=N)N)c6)c5)c4)c3)c2)c1 ; cell line: PRK ; method: cytopathic effect ; value: 4 µg/mL
Nc1nc2c(ncn2CC[C@@H](O)CO)c(=O)[nH]1 ; cell line: BHK ; strain or isolate: 91075 ; method: plaque count ; value: 11 µM
CCCCCSc1nc(N)nc2c1ncn2/C=C1/C[C@@H]1CO ; cell line: HFF ; method: cytopathic effect ; value: 311 µM
CCOP(=O)(OCC)C1=NOC(Cn2cc(C)c(=O)[nH]c2=O)C1 ; cell line: VERO ; method: plaque count ; value: >400 µM
O=c1[nH]c(=O)n([C@H]2C[C@H](O)[C@@H](CO)O2)cc1/C=C/Br ; cell line: PRK ; strain or isolate: 196 ; method: cytopathic effect ; value: 7 µg/mL
COC1=C2C[C@@H](C)C[C@@H](OC)[C@@H](O)[C@H](C)/C=C(\C)[C@@H](OC(N)=O)[C@H](OC)/C=C\C=C(/C)C(=O)NC(=CC1=O)C2=O ; cell line: VERO ; strain or isolate: SAV ; value: 4 µM
Nc1ccn(C[C@@H](CO)OCP(=O)(O)O)c(=O)n1 ; cell line: MRC-5 ; method: plaque count ; value: 13.2 µM
CCc1cn([C@H]2C[C@H](O)[C@@H](CO)O2)c(=O)[nH]c1=O ; cell line: Primary rabbit kidney cells ; strain or isolate: Strain 196 ; method: cytopathic effect ; value: 0.7 µg/mL
COCc1cn([C@H]2C[C@H](O)[C@@H](CO)O2)c(=O)nc1N ; cell line: VERO ; strain or isolate: X-265 ; method: plaque count ; value: 130 µM
Cc1cn([C@@H]2O[C@H](CO[Si](C)(C)C(C)(C)C)C3(O[C@H]3C(=O)NN)[C@H]2O[Si](C)(C)C(C)(C)C)c(=O)[nH]c1=O ; cell line: VERO ; method: plaque count ; value: >5.5 µM

A second listing of 5 rows from above:

structure	cell line	strain or isolate	method	value
O=c1[nH]c(=O)n([C@@H]2C[C@H](CO)[C@@H](O)C2)cc1I	PRK	G	cytopathic effect	10 µg/mL
Nc1ncnc2c1ncn2[C@@H]1C=C(CO)[C@@H](O)[C@H]1O	E6SM	G	cytopathic effect	≥40 µg/mL
Nc1nc2c(ncn2CC[C@@H](O)CO)c(=O)[nH]1	BHK	91075	plaque count	11 µM
Cc1cn(CC[C@H](O)CCO)c(=O)[nH]c1=O	E6SM	G	cytopathic effect	>400 µg/mL
COC(=O)[C@@H]1O[C@]12[C@@H](CO[Si](C)(C)C(C)(C)C)O[C@@H](n1ccc(=O)[nH]c1=O)[C@@H]2O[Si](C)(C)C(C)(C)C	VERO		plaque count	26 µM